Target: Human recombinant PTP1B (Homo sapiens, UniProt P18031)
Test: Inhibition of tri-phosphorylated insulin receptor dodecaphosphopeptide dephosphorylation by hPTP1B (malachite green-ammonium molybdate phosphate detection)
Format: biochemical
Conditions: substrate phosphotyrosyl dodecapeptide TRDIYETDYYRK (insulin receptor 1142-1153), 37°C, 30 min, pH 7.4

Amino acid sequences for entries named in this document (tags omitted). A change or cut given only in a name is not applied to a line headed by its entry.
UniProt P18031: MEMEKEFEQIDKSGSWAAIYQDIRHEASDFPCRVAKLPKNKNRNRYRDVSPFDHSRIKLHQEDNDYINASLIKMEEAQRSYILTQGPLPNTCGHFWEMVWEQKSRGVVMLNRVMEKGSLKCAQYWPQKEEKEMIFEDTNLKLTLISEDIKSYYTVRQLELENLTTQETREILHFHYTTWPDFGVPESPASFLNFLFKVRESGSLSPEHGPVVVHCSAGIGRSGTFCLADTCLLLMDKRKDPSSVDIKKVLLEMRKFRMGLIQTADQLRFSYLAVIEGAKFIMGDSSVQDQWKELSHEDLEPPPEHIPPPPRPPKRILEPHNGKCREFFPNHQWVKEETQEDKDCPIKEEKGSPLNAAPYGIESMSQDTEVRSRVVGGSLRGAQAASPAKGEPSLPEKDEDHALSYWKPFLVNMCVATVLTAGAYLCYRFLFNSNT

**Q.** `O=[As]c1ccccc1` (stereo not shown) was tested. Which IC50 did it give?
**A.** The IC50 was 39.7 µM.
